Test results taken from article PMC3303745, “Elucidation of the Rotavirus NSP4-Caveolin-1 and -Cholesterol Interactions Using Synthetic Peptides” (Journal of Amino Acids, 2012).

Test system: C-Cav161-178
Assay: Direct fluorescence-binding assay, N-terminal cav-1 peptides with Cy3-C-Cav161-178
Conditions: 100 nM Cy3-C-Cav161-178 titrated with 0–500 nM N-terminal cav-1 peptide
Description: A fluorescence-binding assay was utilized to investigate direct binding of the NSP4_112-140 peptide with each of the cav-1 peptides (N-Cav2-20, N-Cav19-40, Cav68-80, and C-Cav). All of the cav-1 peptides directly were labeled with a Cy3 fluorescent dye, using the Cy3 Monoreactive dye pack from Amersham Biosciences according to the manufacturer's protocol. Briefly, each peptide was dissolved in 50 nM phosphate buffer, pH 7.0, at a concentration of 1 mg/mL, and added to a vial containing lyophilized Cy3 dye. The solution gently was mixed and incubated at 25°C for at least 2 h with intermittent mixing. […]
The Cy3 fluorophore was excited at 550 nm and emission spectra were scanned from 560 to 700 nm. Fluorescence emission spectra were obtained at 25°C with a PC1 photon-counting spectrofluorometer with excitation and emission slit widths of 1.0 (ISS, Inc.). Spectra were corrected for background and maximal fluorescence intensities were recorded. Calculation of the dissociation constants (K d) was performed from the titration curves plotted as quenching in Cy3-peptide fluorescence intensity (F 0 − F, where F 0 and F represented the Cy3-cav-1 peptide fluorescence intensities in the absence and presence of NSP4_112-140 or cav-1 peptide, resp., at each titration point) as a function of peptide concentration. […]

SGGKYVDSEGHLYTVPIRE [N-Cav2-20, caveolin-1 N-terminal peptide aa 2–20]
binding to Cy3-C-Cav161-178 (change in fluorescence intensity at 565 nm): no change in fluorescence intensity
